Measured values from several laboratories, pooled; numbers as filed in NIAID ChemDB.

Shared fields: tests in culture; species: Candida albicans; endpoint: MIC

Neighbouring rows are from separate reports. An empty or dashed field is not shown. Two numbers with a dash give a range or band.

| structure | strain or isolate | read by | setting | value |
|---|---|---|---|---|
| CCC(C)CC(C)CCCCCCCCC(=O)N[C@H]1C[C@@H](O)[C@@H](O)NC(=O)[C@@H]2[C@@H](O)CCN2C(=O)[C@H]([C@H](O)CC(N)=O)NC(=O)[C@H]([C@H](O)[C@@H](O)c2ccc(OC(=O)CCCC(=O)O)cc2)NC(=O)[C@@H]2C[C@@H](O)CN2C(=O)[C@H]([C@@H](C)O)NC1=O | MY1055 | - | - | 1 µg/mL |
| COP(=O)(OC)OC[C@@H](O)[C@@H](O)[C@H](O)[C@@H](N)CO | ATCC26278 | - | - | 300 µg/mL |
| Cn1nc(-c2ccc(Cl)cc2)nc2c(=O)n(-c3ccccc3)c(=O)nc1-2 | IFO 0583 | - | - | 20 µg/mL |
| COC(=O)/C=C(/F)C(=O)OC | ATCC 10231 | - | - | >100 µg/mL |
| CCC(C)CC(C)CCCCCCCCC(=O)NC1C[C@@H](O)[C@@H](O)NC(=O)[C@@H]2[C@@H](O)CCN2C(=O)[C@H]([C@@H](O)CC(N)=O)NC(=O)[C@H]([C@H](O)[C@@H](O)c2ccc(OP(=O)([O-])O)cc2)NC(=O)[C@@H]2C[C@@H](O)CN2C(=O)[C@H]([C@H](C)O)NC1=O.[Na+] | MY1055 | - | - | 1 µg/mL |
| Cc1c(N2CCC[C@H](N)C2)c(F)cn2c(=O)c(C(=O)O)cc(C3CC3)c12 | CCH442 | - | - | >100 µg/mL |
| COC(=O)C(Br)CF | ATCC 10231 | - | - | >100 µg/mL |
| Cn1nc(-c2ccccc2)nc2c(=O)n(C)c(=O)nc1-2 | IFO 0583 | - | - | 5 µg/mL |
| COC1=CC(=O)C[C@@H](C)[C@]12Oc1c(Cl)c(OC)cc(OC)c1C2=O | MUCC 29 | - | - | 6 µg/mL |
| CC(=O)N1C(=O)SC[C@H]1C(=O)/C=C/C[C@H]1CC[C@H](C)/C=C\CC/C(C)=C\C(=O)O1 | ATCC 10231 | - | - | 17.8 µM |
| c1ccc2c(c1)cc1[nH]c3ccccc3c1[n+]2CC1CC1 | B311 | - | - | 250 µg/mL |
| CNC1CN(c2c(F)cn3c(=O)c(C(=O)O)cc(C4CC4)c3c2C)CC1O.Cl | CCH442 | - | - | >100 µg/mL |
| CC(=O)CNC(=O)C(Cc1ccccc1)NC(=O)C(Cc1ccc(O)cc1)NC(=O)C(C)C(C)C | MUCC 29 | - | - | 6 µg/mL |
| Cc1ccc(-c2nc3c(=O)n(-c4ccccc4)c(=O)nc-3n(C)n2)cc1 | IFO 0583 | - | - | 50 µg/mL |
| CC1CCCN(CC(C)Cc2ccc(C(C)(C)C)cc2)C1 | 29-3-102 | - | - | 43.1 µM |
| COC(=O)C#CC(=O)OC | ATCC 10231 | - | - | >100 µg/mL |
| C[C@@H](c1nc(-c2ccc(C#N)cc2)cs1)[C@](O)(Cn1cnnc1)c1ccc(F)cc1F | Isogenic isolate 12 (25X) | - | - | ≤0.008 µg/mL |
| CCCCOC(=O)/C=C/C(=O)OCCCC | ATCC 10231 | - | - | >100 µg/mL |
| c1ccc2nc3c(cc2c1)[nH]c1ccccc13 | B311 | - | - | >250 µg/mL |
| CCn1cc(C(=O)Nn2c(C)nc3ccc(I)cc3c2=O)c(=O)c2ccc(C)nc21 | - | - | - | 20–40 µg/mL |
| Cc1c(N2C=NCC2)c(F)cn2c(=O)c(C(=O)O)cc(C3CC3)c12.Cl | CCH442 | - | - | >100 µg/mL |
| Cn1nc(-c2ccc(Cl)c(Cl)c2)[n+]([O-])c2c(=O)n(-c3ccccc3)c(=O)nc1-2 | IFO 0583 | - | - | 50 µg/mL |
| COC(=O)/C=C/CC(=O)OC | ATCC 10231 | - | - | >100 µg/mL |
| Cc1c(N2CCC(C(C)N)C2)c(F)cn2c(=O)c(C(=O)O)cc(C3CC3)c12.Cl | CCH442 | - | - | 0.01 µg/mL |
| CCC(C)C(C)C(=O)NC(Cc1ccc(O)cc1)C(C)=O | MUCC 29 | - | - | 12.5 µg/mL |
| Oc1ccc(Cl)c2cccnc12 | ATCC 60913 | - | 24 h | 6.2 µg/mL |
| Cn1nc(-c2cccc(Cl)c2)nc2c(=O)n(-c3ccccc3)c(=O)nc1-2 | IFO 0583 | - | - | 50 µg/mL |
| Cc1c(N2CCC[C@@H](N)C2)c(F)cn2c(=O)c(C(=O)O)cc(C3CC3)c12 | CCH442 | - | - | >100 µg/mL |
| CCOC(=O)/C=C\C(=O)OCC | ATCC 10231 | - | - | >100 µg/mL |
| CC(=O)N1CCN(c2ccc(OC[C@H]3CO[C@](Cn4ccnc4)(c4ccc(Cl)cc4Cl)O3)cc2)CC1 | - | agar | - | 0.02 µM |
| c1ccc(CCC[n+]2c3ccccc3cc3[nH]c4ccccc4c32)cc1 | B311 | - | - | 31.2 µg/mL |
| CNCC1CN(c2c(F)cn3c(=O)c(C(=O)O)cc(C4CC4)c3c2C)CCO1.Cl | CCH442 | - | - | >100 µg/mL |
| CC(=O)C1CCCN1C(=O)C(C)Cc1ccccc1 | MUCC 29 | - | - | 6 µg/mL |
| Cc1c(N2CC[C@@H]([C@H](C)N)C2)c(F)cn2c(=O)c(C(=O)O)cc(C3CC3)c12 | CCH442 | - | - | >100 µg/mL |
| COC(=O)[C@@H](Br)[C@@H](F)C(=O)OC | ATCC 10231 | - | - | 50 µg/mL |
| CC(=O)C(C)Cc1ccc(O)cc1 | MUCC 29 | - | - | 6 µg/mL |
| Oc1cc(Cl)cc2cccnc12 | ATCC 60913 | - | 48 h | 12 µg/mL |
| CCC(=O)NC(CC(C)C)C(=O)NC(Cc1cnc[nH]1)C(C)=O | MUCC 29 | - | - | 6 µg/mL |
| CCn1cc(C(=O)Nn2c(C)nc3ccccc3c2=O)c(=O)c2ccc(C)nc21 | - | - | - | >300 µg/mL |
| CC(=O)C1CCCN1C | MUCC 29 | - | - | 12.5 µg/mL |
| Cc1c(N2C[C@@H](N)[C@@H](F)C2)c(F)cn2c(=O)c(C(=O)O)cc(C3CC3)c12 | CCH442 | - | - | >100 µg/mL |
| CCC(C)CC(C)CCCCCCCCC(=O)N[C@H]1C[C@@H](O)[C@@H](O)NC(=O)[C@@H]2[C@@H](O)CCN2C(=O)[C@H]([C@H](O)CC(N)=O)NC(=O)[C@H]([C@H](O)[C@@H](O)c2ccc(OC(=O)NCC(=O)O)cc2)NC(=O)[C@@H]2C[C@@H](O)CN2C(=O)[C@H]([C@@H](C)O)NC1=O | MY1055 | - | - | 128 µg/mL |
| Oc1cccc2cc(Cl)cnc12 | ATCC 60913 | - | 48 h | 50 µg/mL |
| C[C@H]1COC2=C(N3CCNCC3)C(F)=CN3C(=O)C(C(=O)O)=CC1C23 | CCH442 | - | - | >100 µg/mL |

The first 7 rows once more:

structure	strain or isolate	read by	setting	value
CCC(C)CC(C)CCCCCCCCC(=O)N[C@H]1C[C@@H](O)[C@@H](O)NC(=O)[C@@H]2[C@@H](O)CCN2C(=O)[C@H]([C@H](O)CC(N)=O)NC(=O)[C@H]([C@H](O)[C@@H](O)c2ccc(OC(=O)CCCC(=O)O)cc2)NC(=O)[C@@H]2C[C@@H](O)CN2C(=O)[C@H]([C@@H](C)O)NC1=O	MY1055	-	-	1 µg/mL
COP(=O)(OC)OC[C@@H](O)[C@@H](O)[C@H](O)[C@@H](N)CO	ATCC26278	-	-	300 µg/mL
Cn1nc(-c2ccc(Cl)cc2)nc2c(=O)n(-c3ccccc3)c(=O)nc1-2	IFO 0583	-	-	20 µg/mL
COC(=O)/C=C(/F)C(=O)OC	ATCC 10231	-	-	>100 µg/mL
CCC(C)CC(C)CCCCCCCCC(=O)NC1C[C@@H](O)[C@@H](O)NC(=O)[C@@H]2[C@@H](O)CCN2C(=O)[C@H]([C@@H](O)CC(N)=O)NC(=O)[C@H]([C@H](O)[C@@H](O)c2ccc(OP(=O)([O-])O)cc2)NC(=O)[C@@H]2C[C@@H](O)CN2C(=O)[C@H]([C@H](C)O)NC1=O.[Na+]	MY1055	-	-	1 µg/mL
Cc1c(N2CCC[C@H](N)C2)c(F)cn2c(=O)c(C(=O)O)cc(C3CC3)c12	CCH442	-	-	>100 µg/mL
COC(=O)C(Br)CF	ATCC 10231	-	-	>100 µg/mL